Experimental data: PubChem BioAssay AID1259414 (Drosophila RNAi Screening Center, 2018)
In all, the deposit lists about 24,000 reagents; shown is an unselected part of those that have a named target and a result. Over the whole deposit, about 1,210 (5%) are marked active. 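Inactive calls also include excluded dsRNAs with several or no targets, genes unexpressed in JW18, and well A1, regardless of score.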 A number with no mark means an inactive call. Reagent sequences are not shown.

- Assay: 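Fly genes that alter Wolbachia amount inside host cells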 (primary screen)
- System: Drosophila JW18 cells infected with Wolbachia
- Reagent: long dsRNA against Drosophila genes, 0.25 µg dsRNA per well of a 384-well plate
- Time to read-out: 5 days
- Challenge: cells persistently infected with Wolbachia before knock-down; no added drug
- Detection: 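Automated imaging of bacterial rRNA staining divided by host cell count, reported as plate-normalised robust z-score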
- Reading the numbers: Wolbachia per cell robust z: higher = more Wolbachia per host cell than the plate typical
- Hit rule: 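Active if absolute robust z reaches 1.5 in two or more of three replicates, leaving out multi- or no-target dsRNAs, genes unexpressed in JW18 and A1 wells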

With Dic1 [DRSC14125], what does the deposit list?
Wolbachia per cell robust z, rep 1: 0.246; Wolbachia per cell robust z, rep 2: 1.05; Wolbachia per cell robust z, rep 3: 0.365

With Ald2 [DRSC15799], how do the results read?
Wolbachia per cell robust z, rep 1: 0.192; Wolbachia per cell robust z, rep 2: 0.508; Wolbachia per cell robust z, rep 3: 0.623

For Ald2 [DRSC25164], how do the results read?
Wolbachia per cell robust z, rep 1: 1.35; Wolbachia per cell robust z, rep 2: 0.714; Wolbachia per cell robust z, rep 3: 0.0259

For CG15109 [DRSC06536], what was measured?
Wolbachia per cell robust z, rep 1: -0.181; Wolbachia per cell robust z, rep 2: -0.826; Wolbachia per cell robust z, rep 3: -0.32

What did the screen give for CG15109 [DRSC26040]?
Wolbachia per cell robust z, rep 1: 0.801; Wolbachia per cell robust z, rep 2: 0.0224; Wolbachia per cell robust z, rep 3: -0.843

With Acp33A [DRSC01859], how do the results read?
Wolbachia per cell robust z, rep 1: -6.51; Wolbachia per cell robust z, rep 2: 0.373; Wolbachia per cell robust z, rep 3: -0.0965

For CG7556 [DRSC20052], what does the deposit list?
Wolbachia per cell robust z, rep 1: 2.13; Wolbachia per cell robust z, rep 2: -1.32; Wolbachia per cell robust z, rep 3: 1.28

For CG7556 [DRSC26701], how do the results read?
Wolbachia per cell robust z, rep 1: 1.14; Wolbachia per cell robust z, rep 2: 0.678; Wolbachia per cell robust z, rep 3: 1.66

What did the screen give for CG11286 [DRSC14293]?
Wolbachia per cell robust z, rep 1: -1.51; Wolbachia per cell robust z, rep 2: 0.703; Wolbachia per cell robust z, rep 3: 0.463

With Fum3 [DRSC10592], how do the results read?
Wolbachia per cell robust z, rep 1: -3.52; Wolbachia per cell robust z, rep 2: -1; Wolbachia per cell robust z, rep 3: 0.231

With Fum3 [DRSC25432], what was measured?
Wolbachia per cell robust z, rep 1: 1.2; Wolbachia per cell robust z, rep 2: -12.7; Wolbachia per cell robust z, rep 3: 1.02

With CG7084 [DRSC16194], what was measured?
Wolbachia per cell robust z, rep 1: 0.189; Wolbachia per cell robust z, rep 2: -10.3; Wolbachia per cell robust z, rep 3: 1.32

Which result is listed for CG4991 [DRSC19928]?
Wolbachia per cell robust z, rep 1: -3.71; Wolbachia per cell robust z, rep 2: 0.228; Wolbachia per cell robust z, rep 3: -0.471

How did the screen score Acp53C14c [DRSC38868]?
Wolbachia per cell robust z, rep 1: -0.593; Wolbachia per cell robust z, rep 2: 0.391; Wolbachia per cell robust z, rep 3: -0.39

For Trs33 [DRSC15990], how do the results read?
Wolbachia per cell robust z, rep 1: -0.967; Wolbachia per cell robust z, rep 2: -1.97; Wolbachia per cell robust z, rep 3: 1.06

For CG33703 [DRSC37834], how do the results read?
Wolbachia per cell robust z, rep 1: 0.172; Wolbachia per cell robust z, rep 2: -1.3; Wolbachia per cell robust z, rep 3: -0.869

Which result is listed for syd [DRSC10963]?
Wolbachia per cell robust z, rep 1: 0.524; Wolbachia per cell robust z, rep 2: 0.0851; Wolbachia per cell robust z, rep 3: 1.39

With syd [DRSC24418], how do the results read?
Wolbachia per cell robust z, rep 1: 0.589; Wolbachia per cell robust z, rep 2: -0.881; Wolbachia per cell robust z, rep 3: -0.31

For mwh [DRSC08382], how do the results read?
Wolbachia per cell robust z, rep 1: 1.05; Wolbachia per cell robust z, rep 2: 1.4; Wolbachia per cell robust z, rep 3: 1

Which result is listed for mwh [DRSC27439]?
Wolbachia per cell robust z, rep 1: -3.32 (active); Wolbachia per cell robust z, rep 2: 1.52; Wolbachia per cell robust z, rep 3: -3.28

With mwh [DRSC38854], what was measured?
Wolbachia per cell robust z, rep 1: -0.808; Wolbachia per cell robust z, rep 2: 1.49; Wolbachia per cell robust z, rep 3: 1.4

Which result is listed for Diedel [DRSC14317]?
Wolbachia per cell robust z, rep 1: 0.428; Wolbachia per cell robust z, rep 2: -3.46; Wolbachia per cell robust z, rep 3: 1.24

How did the screen score Diedel [DRSC27523]?
Wolbachia per cell robust z, rep 1: -0.636; Wolbachia per cell robust z, rep 2: 1.26; Wolbachia per cell robust z, rep 3: 1.1

What did the screen give for CG7179 [DRSC25007]?
Wolbachia per cell robust z, rep 1: 0.903; Wolbachia per cell robust z, rep 2: -0.525; Wolbachia per cell robust z, rep 3: -0.639

Quoted from the listing, 3 entries:
mwh [DRSC38854] — Wolbachia per cell robust z, rep 1: -0.808; Wolbachia per cell robust z, rep 2: 1.49; Wolbachia per cell robust z, rep 3: 1.4
Diedel [DRSC14317] — Wolbachia per cell robust z, rep 1: 0.428; Wolbachia per cell robust z, rep 2: -3.46; Wolbachia per cell robust z, rep 3: 1.24
Diedel [DRSC27523] — Wolbachia per cell robust z, rep 1: -0.636; Wolbachia per cell robust z, rep 2: 1.26; Wolbachia per cell robust z, rep 3: 1.1
